From patent US20110014209A1 (MACFARLANE BURNET INSTITUTE FOR MEDICAL RESEARCH AND PUBLIC …, published 2011)

Target: T1, CD81 MBP-LEL (maltose-binding protein fused to the CD81 large extracellular loop, residues 113-201) (human, UniProt P60033 113-201)
T1 sequence: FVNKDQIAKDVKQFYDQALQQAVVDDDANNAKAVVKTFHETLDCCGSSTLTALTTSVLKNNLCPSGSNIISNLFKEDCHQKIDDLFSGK

B1: E2Δ12-his mature protein (other)
chain: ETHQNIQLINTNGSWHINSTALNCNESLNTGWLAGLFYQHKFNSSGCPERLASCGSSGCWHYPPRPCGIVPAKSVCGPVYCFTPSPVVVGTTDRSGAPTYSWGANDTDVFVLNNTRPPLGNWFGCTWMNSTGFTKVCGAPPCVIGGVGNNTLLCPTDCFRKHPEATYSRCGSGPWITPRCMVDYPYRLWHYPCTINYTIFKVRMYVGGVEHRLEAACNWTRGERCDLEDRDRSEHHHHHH
binding result: binds
